Columns and labels:
DENV-4 strain H241 = experiment: Tetravalent RT-qPCR assay, serotype 4; type: cell-based, Dengue virus; conditions: RT-qPCR serotype 4 H241, Protocol A
Procedure: (§1) Tetravalent reverse transcriptase quantitative-PCR (RT-qPCR) assay The antiviral activity of the compounds of the invention was tested against DENV-1 strain TC974#666 (NCPV), DENV-2 strain 16681, DENV-3 strain H87 (NCPV) and DENV-4 strain H241 (NCPV) in a RT-qPCR assay. Therefore, Vero cells were infected with either DENV-1, or -2, or -3, or -4 in the presence or absence of test compounds. At day 3 post-infection, the cells were lysed and cell lysates were used to prepare cDNA of both a viral target (the 3′UTR of DENV; Table 2) and a cellular reference gene (β-actin, Table 2). Subsequently, a duplex real time PCR was performed on a Lightcycler480 instrument. The generated Cp value is inversely proportional to the amount of RNA expression of these targets. Inhibition of DENV replication by a test compound results in a shift of Cp's for the 3′UTR gene. On the other hand, if a test compound is toxic to the cells, a similar effect on β-actin expression will be observed. The comparative ΔΔCp method is used to calculate EC50, which is based on the relative gene expression of the target gene (3′UTR) normalized with the cellular housekeeping gene (β-actin). In addition, CC50 values are determined based on the Cp values acquired for the housekeeping gene β-actin.
(§2) The culture medium consisted of minimal essential medium supplemented with 2% of heat-inactivated fetal calf serum, 0.04% gentamycin (50mg/mL) and 2 mM of L-glutamine. Vero cells, obtained from ECACC, were suspended in culture medium and 75 μL/well was added in 96-well plates (10000 cells/well), which already contain the antiviral compounds. […] In addition, each plate contains wells which are assigned as virus controls (containing cells and virus in the absence of compound) and cell controls (containing cells in the absence of virus and compound). Once the cells were added in the plates, the plates were incubated in a fully humidified incubator (37° C., 5% CO2) until the next day. Dengue viruses serotype-1, 2, 3 and 4 were diluted in order to obtain a Cp of ˜22-24 in the assay. Therefore, 25 μL of virus suspension was added to all the wells containing test compound and to the wells assigned as virus control. In parallel, 25 μL of culture medium was added to the cell controls. Next, the plates were incubated for 3 days in a fully humidified incubator (37° C., 5% CO2). After 3 days, the supernatant was removed from the wells and the cells were washed twice with ice-cold PBS (˜100 μL). The cell pellets within the 96-well plates were stored at −80° C. for at least 1 day. Next, RNA was extracted using the Cells-to-CT™ lysis kit, according to the manufacturer's guideline (Life Technologies). The cell lysates can be stored at −80° C. or immediately used in the reverse transcription step.
(§3) In preparation of the reverse transcription step, mix A (table 3A) was prepared and 7.57 μL/well was dispensed in a 96-well plate. After addition of 5 μL of the cell lysates, a five minute denaturation step at 75° C. was performed (table 3B). Afterwards, 7.43 μL of mix B was added (table 3C) and the reverse transcription step was initiated (table 3D) to generate cDNA.
(§4) Finally, a RT-qPCR mix was prepared, mix C (table 4A), and 22.02 μL/well was dispensed in 96-well LightCycler qPCR plates to which 3μL of cDNA was added and the qPCR was performed according to the conditions in table 4B on a LightCycler 480.
(§5) Using the LightCycler software and an in-house LIMS system, dose response curves for each compound were calculated and the half maximal effective concentration (EC50) and the half maximal cytotoxic concentration (CC50) were determined (Tables 5-8).

DENV-2 strain 16681 = experiment: Tetravalent RT-qPCR assay, serotype 2; type: cell-based, Dengue virus; conditions: RT-qPCR serotype 2 16681, Protocol A
Procedure: as §1, §2, §3, §4, §5

DENV-2 16681 strain = experiment: DENV-2 antiviral assay (eGFP-labeled virus in Vero cells); type: cell-based, Dengue virus; conditions: SI=CC50/EC50, DENV-2 antiviral assay
Procedure: The antiviral activity of all the compounds of the invention was tested the against DENV-2 16681 strain which was labeled with enhanced green fluorescent protein (eGPF). The culture medium consists of minimal essential medium supplemented with 2% of heat-inactivated fetal calf serum, 0.04% gentamycin (50 mg/mL) and 2 mM of L-glutamine. Vero cells, obtained from ECACC, were suspended in culture medium and 25 μL was added to 384-well plates (2500 cells/well), which already contain the antiviral compounds. Typically, these plates contain a 5-fold serial dilution of 9 dilution steps of the test compound at 200 times the final concentration in 100% DMSO (200 nL). […] Finally, each plate contains wells which are assigned as virus controls (containing cells and virus in the absence of compound), cell controls (containing cells in the absence of virus and compound) and medium controls (containing medium in the absence of cells, virus and compounds). To the wells assigned as medium control, 25 μL of culture medium was added instead of Vero cells. Once the cells were added to the plates, the plates were incubated for 30 minutes at room temperature to allow the cells to distribute evenly within the wells. Next, the plates were incubated in a fully humidified incubator (37° C., 5% CO2) until the next day. Then, DENV-2 strain 16681, labeled with eGFP, was added at a multiplicity of infection (MOI) of 0.5. Therefore, 15 μL of virus suspension was added to all the wells containing test compound and to the wells assigned as virus control. In parallel, 15 μL of culture medium was added to the medium and cell controls. Next, the plates were incubated for 3 days in a fully humidified incubator (37° C., 5% CO2). At the day of the read out, the eGFP fluorescence was measured using an automated fluorescence microscope at 488 nm (blue laser). Using an in-house LIMS system, inhibition dose response curves for each compound were calculated and the half maximal effective concentration (EC50) was determined. Therefore, the percent inhibition (I) for every test concentration is calculated using the following formula: I=100*(ST-SCC)/(SVC-SCC), ST, SCC and SVC are the amount of eGFP signal in the test compound, cell control and virus control wells, respectively. The EC50 represents the concentration of a compound at which the virus replication is inhibited with 50%, as measured by a 50% reduction of the eGFP fluorescent intensity compared to the virus control. The EC50 is calculated using linear interpolation (Table 1).

DENV-1 strain TC974#666 = experiment: Tetravalent RT-qPCR assay, serotype 1; type: cell-based, Dengue virus; conditions: RT-qPCR serotype 1 TC974#666, Protocol A
Procedure: as §1, §2, §3, §4, §5

DENV-3 strain H87 = experiment: Tetravalent RT-qPCR assay, serotype 3; type: cell-based, Dengue virus; conditions: RT-qPCR serotype 3 H87, Protocol A
Procedure: as §1, §2, §3, §4, §5

DENV-2 = conditions: analogous DENV-2 antiviral assay, reported activity; cited from earlier work

| Structure (SMILES) | SI (DENV-4 strain H241) | SI (DENV-2 strain 16681) | SI (DENV-2 16681 strain) | SI (DENV-1 strain TC974#666) | SI (DENV-3 strain H87) | SI (DENV-2) |
| --- | --- | --- | --- | --- | --- | --- |
| COc1cc(NC(C(=O)N2CCc3ccc(OC(F)(F)F)cc32)c2ccc(Cl)cc2)cc(OCCO)c1 (single isomer, unassigned) [Compound 3A, 2-(4-chlorophenyl)-2-((3-(2-hydroxyethoxy)-5-methoxyphenyl)amino)-1-(6-(trifluoromethoxy)indolin-1-yl)ethanone] | 32 | 4860 | 4530 | 1210 | 169 | – |
| CNC(=O)c1cccc(NC(C(=O)c2c[nH]c3ccccc23)c2ccccc2)c1 (stereo not drawn) [(170) of WO-2013/045516] | – | – | – | – | – | 58 |
| COc1cc(NC(C(=O)N2CCc3cc(OC)c(C(F)(F)F)cc32)c2ccc(Cl)cc2F)cc(OCCO)c1 (single isomer, unassigned) [Compound 8B, 2-(4-chloro-2-fluorophenyl)-2-((3-(2-hydroxyethoxy)-5-methoxyphenyl)amino)-1-(5-methoxy-6-(trifluoromethyl)indolin-1-yl)ethanone] | 98 | 5510 | >49900 | >454 | >83 | – |
| COc1cc(NC(C(=O)N2CCc3ccc(OC(F)(F)F)cc32)c2ccc(Cl)cc2F)cc(OCCO)c1 (single isomer, unassigned) [Compound 6B, 2-(4-chloro-2-fluorophenyl)-2-((3-(2-hydroxyethoxy)-5-methoxyphenyl)amino)-1-(6-(trifluoromethoxy)indolin-1-yl)ethanone] | 27 | 4400 | 4900 | 1590 | 253 | – |
| COc1cc(NC(C(=O)N2CCc3ccc(C(F)(F)F)cc32)c2ccc(Cl)cc2OC)cc(OCCO)c1 (single isomer, unassigned) [Compound 1B, 2-(4-chloro-2-methoxyphenyl)-2-((3-(2-hydroxyethoxy)-5-methoxyphenyl)amino)-1-(6-(trifluoromethyl)indolin-1-yl)ethanone] | 12 | 1100 | 3578 | 1110 | 46 | – |

From patent US20200339511A1, “Substituted indoline derivatives as dengue viral replication inhibitors” (priority 2016, published 2020)
